B1: 0RF0288 (protein, listed as Staphylococcus epidermidis)
chain: MIEHLGINTPYFGILVSLIPFVIATYFYKKTNGFFLLAPLFVSMVAGIAFLKLTGISYENYKIGGDIINFFLEPATICFAIPLYRKREVLKKYWLQIFGGIAVGTIIALLLIYLVAITFQFGNQIIASMLPQAATTAIALPVSDGIGGVKELTSLAVILNAVVISALGAKIVKLFKISNPIARGLALGTSGHTLGVAAAKELGETEESMGSIAVVIVGVIVVAVVPILAPILL
B2: ORF0304 (protein, listed as Staphylococcus epidermidis)
chain: MKRTDKYRDSYKYDDQYQNHRKRSEEDMYRQHQESQQRANSNRATQSENDREYENHPERYYNGRDYRREQQLEEENEKSSKTKKWLIAIIVILLIIVAIFITRAIINHNNDKVSNDPNVSQNYKKEVENQNDDINRQVDSAKSDIKNKKDTQSQIDKLQNQIDQLKQNEETNADSKFTKFYQNQIDKLKNANNAQLNNENQSKVNNMLEDINTKFDSIKAKLENILNGSNSGN
B3: ORF0340 (protein, listed as Staphylococcus epidermidis)
chain: MAVKVAINGFGRIGRLAFRRIQEVEGLEVVAVNDLTDDDMLAHLLKYDTMQGRFTGEVEVVDGGFRVNGKEVKSFSEPDASKLPWKDLNIDVVLECTGFYTDKDKAQAHIEAGAKKVLISAPATGDLKTIVFNTNHQELDGSETVVSGASCTTNSLAPVAKVLNDDFGLVEGLMTTIHAYTGDQNTQDAPHRKGDKRRARAAAENIIPNSTGAAKAIGKVIPEIDGKLDGGAQRVPVATGSLTELTVVLEKQDVTVEQVNEAMKNASNESFGYTEDEIVSSDVVGMTYGSLFDATQTRVMSVGDRQLVKVAAWYDNEMSYTAQLVRTLAYLAELSK
B4: ORF0346 (protein, listed as Staphylococcus epidermidis)
chain: MKNKKGLGIGLITIMIIVCIVLVIMMFVGGKKESYYGIMKDSTTIDKMINTKNEKIEKNVELPKDANVSVKKEDFVMLFKDEKTGKITKVKKVNHDDVPHGLMSKIHDMGNMKHGM
B5: ORF0356 (protein, listed as Staphylococcus epidermidis)
chain: MAMSLLVSLVVYMMTLTSDILEDILSFKLEVIMQFPYILSSISLIILFILFILKDMEKIWYWLISIVMIAVISMSGHVWSQQVPLWSIIIRTIHLIGLTLWLGSLVYLICYAIKVKINQLTSVRRMLLKVNIIAVIMLVFTGILMAIDETNTLTLWNNVSAWSIYLVIKIAGIIAMMLLGFYQTMRALRQRQQVHRFALMTELLIGMILILQVS
B6: ORF1230 (protein, listed as Staphylococcus epidermidis)
chain: LKKEILEWIVAIAVAIALIAIITKFVGKSYSIKGDSMDPTLKDGERVVVNIIGYKLGGVEKGNVIVFHANKKDDYVKRVIGTPGDSVEYKNDTLYVNGKKQSEPYLNYNEKRKQTEYITGSFKTKNLPNANPQSNVIPKGKYLVLGDNREVSKDSRSFGLIDKDQIVGKVSLRYWPFSEFKSNFNPNNTKN
B7: ORF1284 (protein, listed as Staphylococcus epidermidis)
chain: MFNKVWFRTGIFFIMLFILIKLFMEVHEVFAPIATIIGSVFLPFLISGFLFYICLPFQNILEKWGFPRWASITTIFIGLIAIIAIVVSFIAPIIISNINNLIKQTPSLQKEAEQLINFSLRQMDKLPDDVTHRINKAVKSMGDGATSILSNSVSYITSFISTVFLLIMVPFFLIYMLKDHEKFIPAIGKFFKGERKVFVVDLLKDLNFTLKSYIQGQVTVSIILGIILYIGYTIIGLPYTPLLVLFAGVANLIPFLGPWLSFAPAAILGIIDGPSTFIWVCVVTLIAQQLEGNVITPNVMGKSLSIHPLTIIVVILAAGDLGGFTLILVAVPLYAVIKTLVSNIFKYRQRIVDKANSNVKD
B8: CRF0002 (protein)
chain: SSVFAIRLTITFSRFSNVGCKKHIKGAIIMKKEIIEWIVAIIVAIVIVTLVQKFLFASYTVKGASNVIYH
B9: CRF0004 (protein)
chain: TANNIISFIITLTNIYKTKLMGYFFNIIELRNKFIRRCWAILFIAIIHFISECFLPHIPTNCYVSRFDFLDSAKNMSYKTLNTICRNSFRIVHKLIV
B10: ORF1333 (protein, listed as Staphylococcus epidermidis)
chain: MNTIVKHTVGFIASIVLTLLAVFVTLYTNMTFHAKVTIIFGFAFIQAALQLLMFMHLTEGKDGRLQSFKVIFAIIITLVTVIGTYWVMQGGHSSHL
B11: ORF0629 (protein, listed as Staphylococcus aureus)
chain: MTGEQFTQIKRPVSRLTEKVLGWLCWVMLLVLTVITMFIALVSFSNNTSIANLENTLNNNAFIQQLLAGNGYNTTQFVIWLQNGIWAIIVYFIVCLLISFLALISMNIRILSGFLFLISAIVTIPLVLLIVTLIIPILFFIIAMMLFIRKDKVEMVAPQYYEEYNGPIYDYREPVYERPQPKDDYYDVPKYEKELDKSNTVYDQEQERDKYDQFPKRAVESEYNHDERTEEEPSVLSRQAKYKQKSTEELGIEDDGYYAEPEVDPKELKAQQKREKAEIKAKKKEKRKAYNQRMKERRKNQPSAVSQRRMNFEERRQIYNNDISEERNSSEVKDKKEQE
B12: ORF0788 (protein, listed as Staphylococcus aureus)
chain: MSFFKRLKDKFATNKENEEVKSLTEEQGQDKLEDTHSEGSTQDANDLAENAEVKKKPRKLSEADFDDDGLISIEDFEEIEAQKMGAKFKAGLEKSRQNFQEQLNNLIARYRKVDEDFFEALEEMLITADVGFNTVMTLTEELRMEAQRRNIQDTEDLREVIVEKIVEIYHQEDDNSEAMNLEDGRLNVILMVGVNGVGKTTTIGKLAYRYKMEGKKVMLAAGDTFRAGAIDQLKVWGERVGVDVISQSEGSDPAAVMYDAINAAKNKGVDILICDTAGRLQNKTNLMQELEKVKRVINRAVPDAPHEALLCLDATTGQNALSQARNFKEVTNVTGIVLTKLDGTAKGGIVLAIRNELHIPVKYVGLGEQLDDLQPFNPESYVYGLFADMIEQNEEITTVENDQIVTEEKDDNHGSK
B13: ORF0406 (protein, listed as Staphylococcus epidermidis)
chain: MKNSRFSGFQWAMMVFVFFVITMALSVILRDFQATIGVKRFVFSIKDLAPFIAAIVCILVFKHRKEQLAGLKFSISLKVIERLLLALILPLIILMIGLFSFNTYADSFILLQTSDLSVSLLTILIGHILMAFVVEFGFRSYLQNILETRMNTFFASIVVGLIYSVFTANTTYGVEYAGYHFLYTFMFSMIIGELIRATNGRTIYIATAFHASMTFALVFLFSEETGDLFSMKVIALSTTIVGVSFIIISLIIRAIVYKTTKQSLDEVDPNNYLSHIQDEEPSQEDASSTSNHDVSSKDETKQQDIDNDKHQSKKPNKSDDALTTSNYKEDASSVNKETDTTHNDNIKDHSTYTEDRHSSVVNDVKDEIHEVEDHKADTDKSH

The molecules below were run on purified IgGs from human sera (assay: Ribosome display screening with purified human IgGs). Conditions: ORFs selected by ribosome display only (screen D).
Assay type: binding

Molecule	Location of identified Immunogenic region
B1	aa 112-149
B2	aa 69-117
B3	aa 238-309
B4	aa 1-29
B5	aa 51-91
B6	aa 1-53
B7	aa 55-106
B8	aa 21-70
B9	aa 31-72
B10	aa 3-93

Same assay, conditions: Ribosome display: D, LSA250/1 library with IC sera (1686)

Molecule	No. of selected clones per ORF and screen: D
B11	D: 313
B12	D: 4

Same assay, conditions: Ribosome display: D, LSE150 in pMAL4.31 with P2 (1235)

Molecule	No. of selected clones per ORF and screen: D
B1	D: 4
B2	D: 8
B3	D: 5
B4	D: 8
B5	D: 5
B13	D: 19
B6	D: 14
B7	D: 27
B8	D: 5
B9	D: 4
B10	D: 4

Same assay, conditions: identified by ribosome display (screen D)

Molecule	Location of identified Immunogenic region
B11	aa 13-37
B12	aa 152-178

Reference: US7968297B2, “Method for identification, isolation and production of antigens to a specific pathogen” (Intercell AG, priority 2001, dated 2011)
